PubChem BioAssay AID504761 – Drosophila RNAi Screening Center – 2011

Aim: 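Genome-wide fly cell screen for genes dengue virus requires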 (primary screen)
Cells: D.Mel-2 cells from Drosophila
Reagents: long dsRNA against Drosophila genes
Conditions: infection with dengue virus type 2; dose and infection time not stated
Read-out: 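Per well on two replicate plates, imaging gave the percent of cells positive for viral envelope protein, ranked by infection, and a nuclear count of cells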
Reading the numbers: infection score: higher = more virus-infected cells; cell count: higher = more cells in the well
Call rule: 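Low infection ranks in the two replicates (chance level up to 0.065) followed by a retest with a 1.5-fold or larger significant decrease, p below 0.05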
Calls: active = confirmed: knock-down lowers infection; inactive = not picked or not confirmed
The deposit covers about 22,000 reagents; shown is a random part of those that have a named target and a result. Over the whole deposit, 116 (0.52%) were called active. 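Calls depend on retest data that are not deposited; infection was ranked per plate without normalising between plates; the unit of the infection score is not given.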 Raw values are not corrected between plates. Entries without a mark were called inactive. The numbers tell different reagents against one gene apart. A plus sign joins genes that one reagent is predicted to hit. Not given: the amount of reagent, the time to read-out.

| predicted target | reagent | infection score, replicate 1 | infection score, replicate 2 | cell count, replicate 1 | cell count, replicate 2 |
| --- | --- | --- | --- | --- | --- |
| Arl8 (ADP ribosylation factor-like 8) | 1 | 4 | 4.85 | 6218 | 6597 |
| qm (quemao) | 1 | 2.35 | 3.72 | 6213 | 6290 |
| qm (quemao) | 2 | 2.11 | 5.43 | 5651 | 5948 |
| Pcyt2 (Phosphocholine cytidylyltransferase 2) | 1 | 9.39 | 5.35 | 5763 | 1681 |
| ATbp ((A+T)-stretch binding protein) | 1 | 2.43 | 1.26 | 4847 | 4921 |
| ATbp ((A+T)-stretch binding protein) | 2 | 11.2 | 19.4 | 1315 | 4300 |
| CG15537 | 1 | 5.12 | 2.86 | 4548 | 6543 |
| CG15537 | 2 | 3.32 | 1.72 | 6419 | 5993 |
| CG10799 | 1 | 17.8 | 14.4 | 5344 | 6348 |
| CG15056 | 1 | 17.2 | 3.36 | 5588 | 6005 |
| RhoGAP93B (Rho GTPase activating protein at 93B) | 1 | 6.73 | 4.23 | 5556 | 6532 |
| Pex11ab (Peroxin 11a/b) | 1 | 21.8 | 14.2 | 6813 | 3311 |
| CG17141 | 1 | – | 9.48 | 414 | 6917 |
| RpS12 (Ribosomal protein S12) | 1 | 12.2 | 10 | 3779 | 3944 |
| mRpL48 (mitochondrial ribosomal protein L48) | 1 | 7.96 | 27.4 | 6710 | 6518 |
| CG14736 | 1 | 5.97 | 5.93 | 6596 | 6665 |
| CG14736 | 2 | 18.1 | 8.19 | 7081 | 6286 |
| dare (defective in the avoidance of repellents) | 1 | 10.5 | 8.85 | 5720 | 6134 |
| mei-217 + mei-218 | 1 | 0.64 | 3.65 | 6071 | 6324 |
| CG12589 | 1 | 16.5 | 2.25 | 5921 | 7195 |
| CG13124 | 1 | 10.8 | 27.8 | 6120 | 5828 |
| CG13124 | 2 | 11.6 | 15.6 | 6518 | 6315 |
| CG10183 | 1 | 5.84 | 13.5 | 3097 | 4347 |
| CG10183 | 2 | 2.68 | 9.37 | 6821 | 6402 |
| CG7290 | 1 | 3.11 | 3.93 | 6924 | 6390 |
| CG7290 | 2 | 6.09 | 1.81 | 6318 | 6191 |
| indra | 1 | 8.68 | 12.7 | 5957 | 5905 |
| indra | 2 | 3.88 | 7 | 6239 | 6426 |
| CG5561 | 1 | 1.34 | 1.14 | 6628 | 6644 |
| brv3 (brivido-3) | 1 | 0.98 | 9.7 | 6562 | 5133 |
| brv3 (brivido-3) | 2 | 4.89 | 2.7 | 6259 | 6443 |
| eIF4G2 (eukaryotic translation initiation factor 4G2) | 1 | 2.18 | 4.29 | 5832 | 6038 |
| eIF4G2 (eukaryotic translation initiation factor 4G2) | 2 | 21.6 | 10.8 | 6171 | 6561 |
| Snap24 (Synaptosomal-associated protein 24kDa) | 1 | 1.37 | 1.24 | 6285 | 6598 |
| CG12436 (retired record) | 1 | 2.67 | 2.14 | 6107 | 6315 |
| CG12436 (retired record) | 2 | 0.73 | 0.69 | 5513 | 5679 |
| CG12436 (retired record) | 3 | 6.64 | 13.7 | 4685 | 6316 |
| Cpr72Ec (Cuticular protein 72Ec) | 1 | 4.62 | 12.5 | 7083 | 6475 |
| mus302 (mutagen-sensitive 302) | 1 | 1.87 | 2.75 | 5551 | 5899 |
| Tengl3 (Testis EndoG-Like 3) | 1 | 3.06 | 5.1 | 5419 | 6112 |
| Tengl3 (Testis EndoG-Like 3) | 2 | 1.49 | 23.7 | 6798 | 5893 |
| CG13566 | 1 | 5.9 | 21.7 | 2982 | 6507 |
| CG13566 | 2 | 7.79 | 7.88 | 6610 | 6513 |
| ATP8A (ATPase 8A) | 1 | 0.92 | 1.98 | 6628 | 5920 |
| ATP8A (ATPase 8A) | 2 | 12.3 | 9.73 | 5940 | 6250 |
| ATP8A (ATPase 8A) | 3 | 32.3 | 11.7 | 2871 | 1433 |
| CG9316 | 1 | 6.29 | 4.67 | 6244 | 6559 |
| siz (schizo) | 1 | 4.49 | 1.42 | 6348 | 6319 |
| siz (schizo) | 2 | 10.9 | 3.57 | 6380 | 6380 |
| siz (schizo) | 3 | 35.6 | 22.4 | 5986 | 6620 |
| Ost48 (Oligosaccharyltransferase 48kD subunit) | 1 | 1.77 | 1.7 | 6391 | 6604 |
| lost | 1 | 0.37 | 0.66 | 5652 | 6346 |
| lost | 2 | 4.53 | 9.83 | 6427 | 6025 |
| lost | 3 | 12.6 | 2.54 | 4331 | 7135 |
| CG32299 + CG32298 | 1 | 4.2 | 2.92 | 6052 | 4899 |
| CG32299 + CG32298 | 2 | 3.28 | 5.56 | 6241 | 6476 |
| CG32299 + CG32298 | 3 | 3.09 | 0.61 | 5991 | 5712 |
| Chc (Clathrin heavy chain) | 1 | 1.5 | 0.5 | 5881 | 5990 |
| CG9541 | 1 | 20.1 | 4.64 | 4919 | 6752 |
| CG32811 | 1 | 5.86 | 9.6 | 6895 | 6305 |
| Smu1 (Smu1 spliceosomal factor) | 1 | 12.3 | 7.51 | 5353 | 6471 |
| CG12506 | 1 | 3.74 | 2.71 | 6250 | 6384 |
| Or43a (Odorant receptor 43a) | 1 | 4.55 | 7.15 | 6833 | 6195 |
| CG12224 | 1 | 2.24 | 4.9 | 6460 | 6513 |
| Syn1 + CG7370 | 1 | 1.02 | 17.6 | 5515 | 6418 |
| Syn1 + CG7370 | 2 | 8.76 | 11.8 | 5922 | 6549 |
| Rpp20 + CG33932 | 1 | 3.38 | 2.86 | 4915 | 5800 |
| CG10205 | 1 | 13.6 | 11.9 | 3820 | 5839 |
| CG11843 | 1 | 5.18 | 8.66 | 6563 | 5462 |
| CG16756 | 1 | 1.45 | 1.2 | 6542 | 6596 |
| Naxd (NAD(P)HX dehydratase) | 1 | 1.34 | 5.41 | 6696 | 6207 |
| CG14563 | 1 | 1.6 | 5.38 | 6618 | 6892 |
| ac (achaete) | 1 | 6.39 | 7.73 | 5992 | 2108 |
| ac (achaete) | 2 | 6.67 | 15.7 | 2698 | 4254 |

Part of the list above, reduced to “cell count, replicate 1”:
CG16756: 6542
Naxd (NAD(P)HX dehydratase): 6696
CG14563: 6618
ac (achaete) #1: 5992
ac (achaete) #2: 2698
